Source: the supplement of paper PMC3578754
Fold change is the IC50 on the isolate divided by the IC50 on a reference virus; 1 = unchanged, higher = more resistant. Changes are given against the subtype B consensus. No active / inactive call. The values were gathered from many studies (numbered anew) with different assays, which the source does not name. Most viruses are clinical isolates; some are laboratory strains or clones with known resistance changes. Isolates with mixed residues are left out; stretches that were not sequenced show no change. Round top values that many isolates share are read here as limits; other very high values and 0.1 may be limits too.

Experiments:
Test in all cases: fold change of IC50 against reference virus; higher = more resistant
[1] = compound: Cc1cn([C@H]2C[C@H](N=[N+]=[N-])[C@@H](CO)O2)c(=O)[nH]c1=O [zidovudine]
Protocol: (§1)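 Cell-culture drug susceptibility tests of virus bearing the reverse transcriptase of each isolate, gathered from many studies.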

[2] = compound: Cc1ccnc2c1NC(=O)c1cccnc1N2C1CC1 [nevirapine]
Protocol: as §1

[3] = compound: O=c1[nH]cnc2c1ncn2[C@H]1CC[C@@H](CO)O1 [didanosine]
Protocol: as §1

Row | Test System | fold change of IC50 against reference virus [1] | fold change of IC50 against reference virus [2] | fold change of IC50 against reference virus [3]
1 | HIV-1 isolate 747 (reverse transcriptase changes: M41L L100I K102Q S162C T215Y K277R I293V R358K V435I S468P K550G, study 16) | 1 | 1 | 
2 | HIV-1 isolate 777 (reverse transcriptase changes: V75I F77L K122E Q151M F214L A272P K277R, study 72) | 48 |  | 6.8
3 | HIV-1 isolate 790 (reverse transcriptase changes: K102Q Q151M S162C K277R I293V R358K V435I S468P K550G, study 72) | 5.6 |  | 4.5
4 | HIV-1 isolate 878 (reverse transcriptase changes: K102Q F116Y S162C K277R I293V R358K V435I S468P K550G, study 4) | 1 |  | 0.9
5 | HIV-1 isolate 892 (reverse transcriptase changes: V179D T200A Q207E V245M A272P, study 26) | 1 | 1 | 
6 | HIV-1 isolate 915 (reverse transcriptase changes: V179D Y181C T200A Q207E V245M, study 26) | 1 | 30000 | 
7 | HIV-1 isolate 943 (reverse transcriptase changes: L74V L100I K102Q S162C K277R I293V R358K V435I S468P K550G, study 16) |  | 2 | 4
8 | HIV-1 isolate 961 (reverse transcriptase changes: V108I V179D Y181C T200A Q207E V245M, study 26) | 1 | 30000 | 
9 | HIV-1 isolate 990 (reverse transcriptase changes: D67N K70R K102Q S162C T215Y K219Q K277R I293V R358K V435I S468P K550G, study 16) | 8000 | 1 | 
10 | HIV-1 isolate 997 (reverse transcriptase changes: V75I K102Q S162C K277R I293V R358K V435I S468P K550G, study 4) | 1 |  | 0.8
11 | HIV-1 isolate 1119 (reverse transcriptase changes: D67N K70R K101E K102Q S162C T215Y K219Q K277R I293V R358K V435I S468P K550G, study 16) | 4000 | 8 | 
12 | HIV-1 isolate 1126 (reverse transcriptase changes: L74V K101E K102Q S162C K277R I293V R358K V435I S468P K550G, study 16) |  | 4 | 4
13 | HIV-1 isolate 1164 (reverse transcriptase changes: M41L K102Q S162C Y181C T215Y K277R I293V R358K V435I S468P K550G, study 16) | 60 | 8 | 
14 | HIV-1 isolate 1198 (reverse transcriptase changes: V75I F77L K102Q Q151M S162C K277R I293V R358K V435I S468P K550G, study 72) | 48 |  | 6.8
15 | HIV-1 isolate 1258 (reverse transcriptase changes: A62V K102Q S162C K277R I293V R358K V435I S468P K550G, study 4) | 1 |  | 1
16 | HIV-1 isolate 1262 (reverse transcriptase changes: M41L K102Q K103N S162C T215Y K277R I293V R358K V435I S468P K550G, study 16) | 2000 | 8 | 
17 | HIV-1 isolate 1263 (reverse transcriptase changes: V179D Y181C T200A Q207E F227L V245M, study 26) | 1 | 40000 | 
18 | HIV-1 isolate 1278 (reverse transcriptase changes: D67N K70R L100I K102Q S162C T215Y K219Q K277R I293V R358K V435I S468P K550G, study 16) | 2 | 1 | 
19 | HIV-1 isolate 1473 (reverse transcriptase changes: K70R K102Q S162C Y181C K277R I293V R358K V435I S468P K550G, study 16) | 1 | 8 | 
20 | HIV-1 isolate 1642 (reverse transcriptase changes: L74V A98G K102Q S162C K277R I293V R358K V435I S468P K550G, study 16) |  | 8 | 8
